Patent US20020025512A1, “FLUORESCENCE POLARIZATION- BASED DIAGNOSTIC ASSAY FOR EQUINE INFECTIOUS ANEMIA VIRUS” (priority 1998, published 2002)

Test system: serum antibodies to equine infectious anemia virus
Test: Fluorescence polarization (FP) assay of fluorescein-labeled peptides with diluted horse serum
Format: binding
Experimental: Several different buffer compositions and detergents were therefore tested for compatibility with horse serum. When horse serum was diluted 1:50 or 1:100 into 20-50 mM sodium phosphate without NaCl, this problem was virtually eliminated. […] Under the low-salt conditions, the polarization of peptide R51-5CF increased from 50 mP to over 200 mP with a 1:100 dilution of a strong positive EIAV antiserum from an experimental infection (Pony 95). Thus it was determined that the optimal buffer composition for the FP assay was 50 mM sodium phosphate, pH 6.8-7.0.
Fluorescence Polarization (FP) Measurements. The fluorescein-labeled peptides were evaluated for their suitability as probes for FP using an FPM-1 Fluorescence Polarization Analyzer (Jolley Consulting and Research, Grayslake, Ill.) batch mode with the following settings: PMT gain 80, heater off, single read. Serum was diluted 1:100 or 1:50 into 2 mL of buffer in 12×75 mm borosilicate glass tubes (VWR). After reading the blank, fluorescently labeled peptide was added to a final concentration of 1-2 nM (100K-200K total intensity) and incubated for at least 15 minutes. The FP of the sample was measured and expressed as millipolarization units (mP). Some of the sera were very dark, presumably due to hemolysis. If such a serum sample had low lamp feedback (<0.63), a two-fold further dilution was tested. Polarization data was output to a computer running the FPM-1 data collection software, then converted to an ASCII text file and imported into the Quattro Pro spreadsheet program (Corel, Ottawa, Ontario) for data analysis and graphing.
Because different fluorescein linkages can result in differences in sensitivity in the FP assay, R51 peptide was labeled with 6-carboxyfluorescein so the difference between the two labels could be ascertained. […] Peptides (approx. 2 nM) were incubated with a 1:100 dilution of serum in 50 mM sodium phosphate, pH 6.8, for 20 minutes. The results are shown in FIG. 2, in order of decreasing peptide length. In FIG. 2, black bars show the results for experimentally-infected (pony 95), hatched bars for field infected ([…]), gray bars for uninfected (Petite), and white bars for no serum added. […] As the R51-6CF probe was the most sensitive to the positive sera tested, 6-carboxyfluorescein is the preferred fluorophore. However, other fluorophores, such as rhodamine, BODIPY™ M, Texas Red™ and Lucifer yellow, could also be used. For a detailed listing of a variety of commercially available fluorophores, see Handbook of Fluorescent Probes and Research Chemicals, ed. Karen Larison, by Richard P. Haughland, Ph.D., 5th ed., 1992, published by Molecular Probes, Inc.

For “IGCIERTHVFCHTG (Equine infectious anemia virus) [R51]”, which “sensitivity with a single envelope-based peptide antigen” value (summary statement) is on record?
Its value is “approximately 90%”.

Which specificity (110 AGID-negative sera, samples kept in good condition) does the source give for “R51-6CF: R51 peptide (SEQ ID NO 1) labeled with 6-carboxyfluorescein (IGCIERTHVFCHTG; 6-carboxyfluorescein label; Equine infectious anemia virus)” here?
Its specificity is 100%.

And the “overall percent reactivity of serum panel in the FP assay” value (153 field-infected sera (Texas, Utah, Missouri, Florida), vs AGID)?
Its value is 93%.

And the “positive Texas sera that did not react with the probe in the FP assay” value (even at a 1:50 dilution)?
Its value is 14 samples out of 123.

And the “time at which antibody was detected” value (experimental infection of four ponies, weekly sera, 1:100 and 1:50 dilutions)?
The value was 3 weeks post infection.

And the “average sensitivity of the FP assay” value (two other studies)?
The value was 95%.

What about the “specificity of the FP assay” value (two other studies) of the same substance?
Its value is 100%.
